In publication PMC7933434, “Entropy-driven binding of gut bacterial β-glucuronidase inhibitors ameliorates irinotecan-induced toxicity” (Communications Biology, 2021) one finds Ki data, which are given here for 4 compounds.

Protein sequences, listed by entry. Tags and fused reporters are not part of them. Lines headed by an entry give the natural chain unless they say otherwise; changes in a name come on top.
UniProt Q8XP19: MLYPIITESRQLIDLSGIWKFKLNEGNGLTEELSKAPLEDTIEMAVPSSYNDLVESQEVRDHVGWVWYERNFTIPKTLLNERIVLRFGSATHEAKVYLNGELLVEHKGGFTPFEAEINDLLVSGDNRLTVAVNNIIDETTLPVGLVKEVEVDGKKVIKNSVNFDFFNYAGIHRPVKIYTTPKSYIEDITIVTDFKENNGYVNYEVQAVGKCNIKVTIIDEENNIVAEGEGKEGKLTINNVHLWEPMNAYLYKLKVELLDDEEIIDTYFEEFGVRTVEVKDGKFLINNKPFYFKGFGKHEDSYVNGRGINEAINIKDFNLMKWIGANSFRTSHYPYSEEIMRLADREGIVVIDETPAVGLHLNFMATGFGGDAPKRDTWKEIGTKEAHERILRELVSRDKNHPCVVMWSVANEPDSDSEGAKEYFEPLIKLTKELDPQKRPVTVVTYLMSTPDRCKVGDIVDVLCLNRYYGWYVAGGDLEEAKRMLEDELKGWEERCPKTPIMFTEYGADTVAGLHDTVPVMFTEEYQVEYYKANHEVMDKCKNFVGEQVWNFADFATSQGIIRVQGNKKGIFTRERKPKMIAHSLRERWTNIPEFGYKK

The assay concerns the target CpGUS (Clostridium perfringens GUS) (Clostridium perfringens, UniProt Q8XP19). As to the kind of experiment: GUS inhibition assay, hydrolysis of 4-methylumbelliferyl-β-glucuronide, CpGUS.
Where [1] appears, read: 50 mM sodium acetate pH 4.5, 37 °C.

Like-named read-outs stand apart in the source and are kept apart here.

`CCCCCC[C@@H]1NC[C@@H](O)[C@H](O)[C@H]1C(=O)O`: under setting [1], the Ki (as a rule, the equilibrium dissociation constant of an inhibitor or competing ligand from its target) is 170 nM.

Regarding `O=C(O)[C@H]1CNC[C@@H](O)[C@@H]1O` [Inhibitor 1, Uronic isofagomine], the Ki amounted to 6.5 nM. The same compound yielded a Ki under setting [1] of 6.5 nM.

With `CCC[C@@H]1NC[C@@H](O)[C@H](O)[C@H]1C(=O)O` [Inhibitor 2, C6-propyl UIFG], the Ki under setting [1] came out at 620 nM.

As to `CCCCCCCCC[C@@H]1NC[C@@H](O)[C@H](O)[C@H]1C(=O)O` [Inhibitor 4, C6-nonyl UIFG], the inhibitory constant (Ki) under setting [1] stood at 26 nM.
